Compound potency records, mixed from different reports. Data source: NIAID ChemDB in PubChem.

Shared fields: tests in culture; organism: HIV-1; cell line: C8166; endpoint: EC50

ECn is the concentration giving n% inhibition of infection, replication or growth.

CCOP(=O)(OCC)OC[C@H]1O[C@@H](n2cc(C)c(=O)[nH]c2=O)C[C@@H]1OS(C)(=O)=O ; strain: RF ; method: p24 ; result: >100 µM
COc1cc([C@H]2O[C@@H](c3ccc(O)cc3)[C@H](C)[C@@H]2C)ccc1O ; strain: IIIB ; method: syncytia ; result: 9.55 µg/mL
Cc1cn([C@H]2C[C@H](N=[N+]=[N-])[C@@H](CO)O2)c(=O)[nH]c1=O ; strain: MN ; method: p24 / ELISA ; result: 0.0009 µg/mL
Cc1cn([C@H]2C[C@H](N=[N+]=[N-])[C@@H](COP(=O)(N[C@@H](C)C(=O)OC(C)(C)C)OCC(Cl)(Cl)Cl)O2)c(=O)[nH]c1=O ; strain: RF ; method: ELISA ; result: 20 µM
CCCCCCOP(=O)(OCC(=O)OCC)OC[C@H]1O[C@@H](n2cc(C)c(=O)[nH]c2=O)C[C@@H]1OC(C)=O ; strain: RF ; method: p24 ; result: >100 µM
COc1cc2c(c(OC)c1OC)-c1c(cc3c(c1OC)OCO3)[C@H](OC(=O)c1ccccc1)[C@@](C)(O)[C@@H](C)C2 ; strain: IIIB ; method: syncytia ; result: 20.4 µg/mL
CCCCCC(O)/C=C/C=C\CCCCCC[C@@H]1C(=O)O[C@@](O)(CO)[C@H]1O ; strain: IIIB ; method: cytopathic effect / syncytia ; result: 0.18 µM
Cc1cc(-c2ccc[n+]([O-])c2)ccc1OCCc1cnc2c(c1)C(=O)N(C)c1cccnc1N2C1CC1 ; changes: RT-K103N Y181C ; method: p24 ; result: 0.01–0.05 µM
CC/C=C\C/C=C\C/C=C\C/C=C\C/C=C\CCCC(=O)O[C@@H]1[C@@H](C)[C@@]2(O)[C@@H](C=C(CO)C[C@]3(O)C(=O)C(C)=C[C@@H]23)[C@@H]2C(C)(C)[C@]12OC(C)=O ; strain: IIIB ; method: p24 / ELISA ; result: 0.0041 µM
CCCOP(=O)(OCC(=O)OCC)OC[C@H]1O[C@@H](n2cc(C)c(=O)[nH]c2=O)C[C@@H]1N=[N+]=[N-] ; strain: RF ; method: p24 ; result: 0.5 µM
CCc1ccc(S(=O)(=O)Oc2ccc(N=Nc3ccc(N=Nc4ccc(OS(=O)(=O)c5ccc(CC)cc5)c5ncccc45)cc3)c3cccnc23)cc1 ; strain: IIIB ; method: syncytia ; result: 2.59 µg/mL
Cc1cc(C)cc(S(=O)(=O)c2c(C(=O)NNCCO)[nH]c3ccc(Cl)cc23)c1 ; strain: EFV-resistant (RT K103R V179D P225H) ; changes: RT-K103R V179D P225H ; method: p24 ; result: <0.2 µM
CCN(CC)c1ncnc2c1ncn2[C@H]1CC[C@@H](CO)O1 ; strain: RF ; method: cytopathic effect / MTT / p24 ; result: <100 µM
CCCCOP(=O)(OCCCC)OC[C@H]1O[C@@H](n2cc(C)c(=O)[nH]c2=O)C[C@@H]1O ; strain: RF ; method: p24 ; result: >100 µM
Clc1ccccc1OCc1ccccc1 ; strain: IIIB ; method: syncytia ; result: 29.36 µg/mL
Cc1cn([C@H]2C[C@H](N=[N+]=[N-])[C@@H](CO)O2)c(=O)[nH]c1=O ; method: cytopathic effect ; result: 9 µM
Cc1ccc(C)c(C(C)S(=O)(=O)c2c(C)ccc[n+]2[O-])c1 ; strain: IIIB ; method: syncytia ; result: 0.1 µg/mL
CCCCCCCCC(=O)O[C@@]12[C@H](OC(=O)/C=C/c3ccc(Cl)cc3)[C@@H](C)[C@@]3(O)[C@@H](C=C(CO)C[C@]4(O)C(=O)C(C)=C[C@@H]34)[C@@H]1C2(C)C ; strain: IIIB ; method: p24 / ELISA ; result: 0.0034 µM
CCN1c2ncc(CCOc3ccc(-c4ccc(C)nc4)cc3C)cc2C(=O)N(C)c2cccnc21 ; changes: RT-K103N Y181C ; method: p24 ; result: <0.01 µM
C=C1C(=O)O[C@H]2[C@@H]1[C@H](OC(=O)C(C)C)[C@@H]1[C@@](C)([C@@H](OC(C)=O)CC[C@]1(C)O)[C@H]2OC(C)=O ; strain: IIIB ; method: absorbance ; result: 7.06 µM
CCCCOP(=O)(OCCCC)OC[C@H]1O[C@@H](n2cc(C)c(=O)[nH]c2=O)C[C@@H]1OS(C)(=O)=O ; strain: RF ; method: p24 ; result: >100 µM
Cc1cc(SCc2cnc3c(c2)C(=O)Nc2c(C)cc(Cl)nc2N3C2CC2)cc(C)n1 ; strain: WILD TYPE ; method: p24 ; result: 0.0022 µM
CCN1c2ncc(CCOc3ccc(C(=O)Nc4nc(CC(=O)O)cs4)cc3C)cc2C(=O)N(C)c2cccnc21 ; changes: RT-K103N Y181C ; method: p24 ; result: >0.05 µM
Cc1cc(C)cc(S(=O)(=O)c2c(C(=O)NC(C)C(N)=O)[nH]c3ccc(Cl)cc23)c1 ; strain: IIIB ; method: p24 ; result: <0.004 µM
CCCCCCOC(=O)[C@H](C)NP(=O)(OC[C@H]1O[C@@H](n2cc(C)c(=O)[nH]c2=O)C[C@@H]1N=[N+]=[N-])OCC(Cl)(Cl)Cl ; strain: RF ; method: ELISA ; result: 0.5 µM
CCc1c(CC2CCCCC2)nc(SCC(=O)c2ccc(OC(=O)c3ccccc3)cc2)[nH]c1=O ; strain: IIIB ; method: MTT / syncytia ; result: 0.0089 µM
Cc1cn([C@H]2C[C@H](N=[N+]=[N-])[C@@H](COP(=O)(N[C@@H](C)C(=O)OC3CCCCC3)Oc3ccccc3)O2)c(=O)[nH]c1=O ; strain: RF ; method: ELISA ; result: 0.4 µM
CS(=O)(=O)Oc1ccc(N=Nc2ccc(N=Nc3ccc(OS(C)(=O)=O)c4ncccc34)cc2)c2cccnc12 ; strain: IIIB ; method: syncytia ; result: 3.41 µg/mL
CC(=O)O[C@@H]1CC[C@]2(CO2)[C@]2(C)[C@@H](OC(C)=O)[C@H](OC(C)=O)[C@]3(C)O[C@]4(COC(=O)C4)[C@@H](OC(=O)c4ccccc4)C[C@]3(C)[C@@H]12 ; strain: IIIB ; method: MTT / ELISA ; result: 79.17 µg/mL
Nc1nc2c(ncn2[C@H]2C=C[C@@H](CO)C2)c(=O)[nH]1 ; method: cytopathic effect ; result: 0.12 µg/mL
Cc1cc(C)cc(S(=O)(=O)c2c(C(=O)NCC(=O)NC(C)C(=O)NN)[nH]c3ccc(Cl)cc23)c1 ; strain: IIIB ; method: p24 ; result: <0.12 µM
CCCCOP(=O)(OCCCC)OC[C@H]1O[C@@H](n2cc(C)c(=O)[nH]c2=O)C[C@@H]1OC(C)=O ; strain: RF ; method: p24 ; result: >100 µM
CC1=C[C@H]2[C@@]3(O)[C@H](C)[C@@H](OC(=O)/C=C/c4ccccc4)[C@]4(O)[C@H]([C@@H]3C=C(CO)C[C@]2(O)C1=O)C4(C)C ; strain: IIIB ; method: p24 / ELISA ; result: 19.8 µM
CCN1c2ncc(CSc3cc(C)nc(C)c3)cc2C(=O)Nc2c(C)cc(Cl)nc21 ; strain: WILD TYPE ; method: p24 ; result: 0.0012 µM
O=C(COc1ccc(Cl)cc1C(=O)c1ccccc1)Nc1ccccc1 ; strain: RF ; method: p24 ; result: 0.0032 µM
CC1=C[C@H]2[C@@]3(O)[C@H](C)[C@@H](OC(=O)CCCCCCCCBr)[C@]4(OC(=O)CCCCCCCCBr)[C@H]([C@@H]3C=C(CO)C[C@]2(O)C1=O)C4(C)C ; strain: IIIB ; method: p24 / ELISA ; result: 17.13 µM
Cc1ccc(C(C)S(=O)(=O)c2c(C)ccc[n+]2[O-])c(C)c1 ; strain: IIIB ; method: syncytia ; result: 5 µg/mL
CCCOP(=O)(OC[C@H]1O[C@@H](n2cc(C)c(=O)[nH]c2=O)C[C@@H]1N=[N+]=[N-])OC(C)C(=O)OC ; strain: RF ; method: p24 ; result: 10 µM
O=[N+]([O-])c1cc(S(=O)(=O)Oc2ccc(N=Nc3ccc(N=Nc4ccc(OS(=O)(=O)c5ccc(Cl)c([N+](=O)[O-])c5)c5ncccc45)cc3)c3cccnc23)ccc1Cl ; strain: IIIB ; method: syncytia ; result: 2.69 µg/mL
C=C(C)[C@@]12OC3(C)O[C@@H]1[C@@H]1[C@H](OC(=O)c4ccccc4)C4(C)O[C@@]5([C@@H]4OC(=O)c4ccccc4)[C@@H](O)[C@@H](C)C[C@H]5[C@@]1(O)[C@H](C)[C@@H]2O3 ; method: syncytia ; result: 63.8 µg/mL
Cc1cn([C@H]2C[C@H](N=[N+]=[N-])[C@@H](CO)O2)c(=O)[nH]c1=O ; strain: IIIB ; method: p24 ; result: 0.00194 µg/mL
C[C@H](Cn1cnc2c(N)ncnc21)OCP(=O)(O)O ; strain: IIIB ; method: p24 / ELISA ; result: 0.21 µg/mL
CCOP(=O)(N[C@@H](Cc1ccccc1)C(=O)OC)OC[C@H]1O[C@@H](n2cc(C)c(=O)[nH]c2=O)C[C@@H]1N=[N+]=[N-] ; strain: RF ; method: p24 ; result: 10 µM
CCN(CC)CCOc1ccc(NC(=O)COc2ccccc2C(=O)c2ccc(F)cc2)cc1 ; strain: RF ; method: syncytia ; result: 0.0275 µM
COC(=O)[C@@H](NP(=O)(OC)OC[C@H]1O[C@@H](n2cc(C)c(=O)[nH]c2=O)C[C@@H]1N=[N+]=[N-])C(C)C ; strain: RF ; method: p24 ; result: 3 µM
O=[N+]([O-])c1ccc(COc2ccccc2)cc1 ; strain: IIIB ; method: syncytia ; result: 5.96 µg/mL
C=C(C)[C@]1(O)C[C@@H](C)[C@@]2(O)[C@H]([C@H]1OC(=O)/C=C/C=C/CCCCC)[C@@H]1O[C@]1(CO)[C@@H](O)[C@]1(O)C(=O)C(C)=C[C@H]12 ; strain: IIIB ; method: p24 / ELISA / antigen ; result: 0.445 µM
Cc1cc(C)cc(S(=O)(=O)c2c(C(=O)NCC(=O)NN)[nH]c3ccc(Cl)cc23)c1 ; strain: IIIB ; method: p24 ; result: <0.03 µM
CC(=O)O[C@H]1C[C@]2(C)[C@H]3[C@H](OC(C)=O)CC[C@]4(CO4)[C@]3(C)[C@@H](OC(C)=O)[C@H](OC(=O)c3ccccc3)[C@]2(C)O[C@]12COC(=O)C2 ; strain: IIIB ; method: MTT / ELISA ; result: 54.64 µg/mL
O=S(=O)(Oc1ccc(N=Nc2ccc(N=Nc3ccc(OS(=O)(=O)c4ccccc4)c4ncccc34)cc2)c2cccnc12)c1ccccc1 ; strain: IIIB ; method: syncytia ; result: 14.63 µg/mL
O=C(c1ccccc1)c1cc(Cl)ccc1OCC(=O)N1CCc2ccccc2C1 ; strain: RF ; method: p24 ; result: 0.0394 µM
CCOP(=O)(N[C@H](C(=O)OC)[C@@H](C)CC)OC[C@H]1O[C@@H](n2cc(C)c(=O)[nH]c2=O)C[C@@H]1N=[N+]=[N-] ; strain: RF ; method: p24 ; result: 50 µM
Cc1cn([C@H]2C[C@H](N=[N+]=[N-])[C@@H](CO)O2)c(=O)[nH]c1=O ; method: syncytia ; result: 0.004 µg/mL
NNC(=O)c1[nH]c2ccc(Cl)cc2c1S(=O)(=O)c1ccccc1 ; strain: EFV-resistant (RT K103R V179D P225H) ; method: p24 ; result: <3 µM
CC1=C[C@H]2[C@@]3(O)[C@H](C)[C@@H](OC(=O)CCCCCCCCCCBr)[C@]4(OC(=O)CCCCCCCCCCBr)[C@H]([C@@H]3C=C(CO)C[C@]2(O)C1=O)C4(C)C ; strain: IIIB ; method: p24 / ELISA ; result: 80.85 µM
C=C1C(=O)O[C@@H](CCCCCCCCCCCCCC(C)=O)[C@H]1C(=O)O ; strain: IIIB ; method: cytopathic effect / syncytia ; result: 0.23 µM
Cc1ccc(C)c(C(C)S(=O)(=O)c2ccc(C)c[n+]2[O-])c1 ; strain: IIIB ; method: syncytia ; result: ≥4 µg/mL
CCN(CC)CCOc1ccc(NC(=O)COc2cc(OC)ccc2C(=O)c2ccccc2)cc1 ; strain: RF ; method: syncytia ; result: 0.105 µM
CCN1c2ncc(CCOc3ccc(-c4cn(C)cn4)cc3C)cc2C(=O)N(C)c2cccnc21 ; strain: IIIB ; method: p24 ; result: <0.01 µM
CCCCCCNc1ncnc2c1ncn2[C@H]1CC[C@@H](CO)O1 ; strain: RF ; method: cytopathic effect / MTT / p24 ; result: <100 µM
Cc1cccc(CS(=O)(=O)c2cccc[n+]2[O-])c1 ; strain: IIIB ; method: syncytia ; result: 7 µg/mL
CCOP(=O)(N[C@@H](C)C(=O)OC)OC[C@H]1O[C@@H](n2cc(C)c(=O)[nH]c2=O)C[C@@H]1N=[N+]=[N-] ; strain: RF ; method: p24 ; result: 3 µM
Cc1cc(C)cc(S(=O)(=O)c2c(C(N)=O)[nH]c3ccc(Cl)cc23)c1 ; strain: EFV-resistant (RT K103R V179D P225H) ; method: p24 ; result: <0.08 µM
O=[N+]([O-])c1ccccc1OCc1ccccc1 ; strain: IIIB ; method: syncytia ; result: 12.53 µg/mL
CC(=O)O[C@H]1C[C@]2(C)O[C@]3(COC(=O)C3)[C@@H](OC(=O)c3ccccc3)[C@H](OC(C)=O)[C@]2(C)[C@H]2CCC[C@]3(CO3)[C@]12C ; strain: IIIB ; method: MTT / ELISA ; result: 77.53 µg/mL
Cc1cn([C@H]2C[C@H](N=[N+]=[N-])[C@@H](CO)O2)c(=O)[nH]c1=O ; strain: IIIB ; method: absorbance ; result: 0.017 µM
CCN1c2ncc(CCOc3ccc(-c4cc(CC(=O)O)ccc4C)cc3C)cc2C(=O)N(C)c2cccnc21 ; changes: RT-K103N Y181C ; method: p24 ; result: 0.01–0.05 µM
Clc1ccc(OCc2ccccc2)cc1 ; strain: IIIB ; method: syncytia ; result: 11.53 µg/mL
Cc1ccc(C)c(CSc2c(Cl)ccc[n+]2[O-])c1 ; strain: IIIB ; method: syncytia ; result: 0.04 µg/mL
CCCOP(=O)(N[C@H](C(=O)OC)C(C)C)OC[C@H]1O[C@@H](n2cc(C)c(=O)[nH]c2=O)C[C@@H]1N=[N+]=[N-] ; strain: RF ; method: p24 ; result: 10 µM

Neighbouring rows are from separate reports. a–b is a range or a potency band.